Results of unrelated studies side by side (data: NIAID ChemDB).

All rows: growth or infection tests; species: HIV-1; endpoint: EC50

An empty or dashed field is not shown. ECn is the concentration giving n% inhibition of infection, replication or growth. Conditions beyond the fields shown may differ between rows.

smiles | strain or isolate | changes | setting | read by | cell line | value
Cc1ccc(CNC(=O)c2nc3n(c(=O)c2O)C(C)CCCC3N(C)C(=O)C(=O)N(C)C)cc1F |  | Q148R |  | single cycle | HeLa P4-2 | 0.001 µM
CC(=O)NCC[C@@]12CC[C@]3(C)[C@H](CC[C@@H]4[C@@]5(C)CC[C@H](OC(=O)[C@H]6C[C@@H](C(=O)O)C6(C)C)C(C)(C)[C@@H]5CC[C@]43C)C1=C(C(C)C)C(=O)C2 | 92HT599 |  |  | p24 / ELISA | MT-2 | <1 µM
COCc1nc(Nc2ccc(C#N)cc2)nc(Nc2c(C)cc(/C=C/C#N)cc2C)c1C(=O)NCCc1ccccn1 | MDR |  |  |  | MT4 CMV-EGFP | 0.372 µM
CC(=O)Oc1ccccc1C(=O)N1CCN(C(=O)C(=O)c2c[nH]c3cccc(F)c23)CC1 |  |  |  | luciferase | HeLa + HELA CD4+/CCR5 | <10 µM
Cc1cc(CNC(=O)c2nc3n(c(=O)c2O)[C@@H](C)COC[C@H]3N(C)C(=O)C(=O)N(C)C)ccc1F |  | Y143R |  | single cycle | HeLa P4-2 | 0.002 µM
C[C@@H]1CN(C(=O)c2cccc(N)c2)CCN1C(=O)C(=O)c1c[nH]c2cccc(F)c12 |  |  |  | luciferase | HeLa + HELA CD4+/CCR5 | <10 µM
CC(C)CN(C[C@@H](O)[C@H](Cc1ccccc1)NC(=O)O[C@H]1CO[C@H]2OCC[C@H]21)S(=O)(=O)c1ccc2nc(NC3CCN(C4CCCC4)CC3)sc2c1 | T21217 | L10F I47V L90M |  | reporter gene | MT-4 | 312 nM
CC(C)(C)OC(=O)Nc1ccc(C(=O)N2CCN(C(=O)C(=O)c3c[nH]c4cccc(Cl)c34)CC2)cc1 |  |  |  | luciferase | HeLa + HELA CD4+/CCR5 | <10 µM
Cc1nnc(-c2cccc(-c3cccc(C(=O)N4CCCCC4)c3)c2)o1 | CE0217 |  | pseudotyped | luminescence | TZM-bl | >30 µM
COCc1nc(Nc2ccc(C#N)cc2)nc(Nc2c(C)cc(/C=C/C#N)cc2C)c1C(=O)N1CCC(O)CC1 | L1001+K103N |  |  |  | MT4 CMV-EGFP | 1.62 µM
O=C(C(=O)N1CCN(C(=O)c2ncc[nH]2)CC1)c1c[nH]c2cccc(F)c12 |  |  |  | luciferase | HeLa + HELA CD4+/CCR5 | <10 µM
CC(C)C1=C2[C@H]3CC[C@@H]4[C@@]5(C)CC[C@H](OC(=O)[C@H]6C[C@@H](C(=O)O)C6(C)C)C(C)(C)[C@@H]5CC[C@@]4(C)[C@]3(C)CC[C@@]2(CCN(CCN(C)C)C(=O)c2nccs2)CC1=O | 92HT599 |  |  | p24 / ELISA | MT-2 | <1 µM
COCCNC(=O)c1c(COC)nc(Nc2ccc(C#N)cc2)nc1Nc1c(C)cc(/C=C(\C)C#N)cc1C | MDR |  |  |  | MT4 CMV-EGFP | 0.0891 µM
Cc1cc(CNC(=O)c2nc3n(c(=O)c2O)CC(C)(C)CCC3N(C)C(=O)C(=O)N(C)C)ccc1F |  | Q148R |  | single cycle | HeLa P4-2 | 0.002 µM
COCc1nc(Nc2ccc(C#N)cc2)nc(Nc2c(C)cc(/C=C/C#N)cc2C)c1C(=O)NCc1cccs1 | K103N + Y181C |  |  |  | MT4 CMV-EGFP | 0.0741 µM
CC(C)C1=C2[C@H]3CC[C@@H]4[C@@]5(C)CC[C@H](OC(=O)[C@H]6C[C@@H](C(=O)O)C6(C)C)C(C)(C)[C@@H]5CC[C@@]4(C)[C@]3(C)CC[C@@]2(CCN(CCN(C)C)Cc2cc(C(C)C)n[nH]2)CC1=O | 92HT599 |  |  | p24 / ELISA | MT-2 | <1 µM
CCN(C(=O)C(=O)N(C)C)[C@H]1CC[C@H](OC)Cn2c1nc(C(=O)NCc1ccc(F)cc1)c(O)c2=O |  | Q148R |  | single cycle | HeLa P4-2 | >0.1 µM
Cc1cn(-c2ccc(CNC(=O)C[C@@]34CC[C@]5(C)[C@H](CC[C@@H]6[C@@]7(C)CC[C@H](OC(=O)[C@H]8C[C@@H](C(=O)O)C8(C)C)C(C)(C)[C@@H]7CC[C@]65C)C3=C(C(C)C)C(=O)C4)cc2)cn1 | 92HT599 |  |  | p24 / ELISA | MT-2 | <1 µM
COCc1nc(Nc2ccc(C#N)cc2)nc(Oc2c(C)cc(/C=C(\C)C#N)cc2C)c1C(=O)NCc1ccncc1 | L1001+K103N |  |  |  | MT4 CMV-EGFP | 0.324 µM
Cc1cc(CNC(=O)c2nc3n(c(=O)c2O)[C@H](C)COC[C@@H]3N(C)C(=O)C(=O)N(C)C)ccc1F |  | Q148R |  | single cycle | HeLa P4-2 | 0.003 µM
CC(C)C1=C2[C@H]3CC[C@@H]4[C@@]5(C)CC[C@H](OC(=O)[C@H]6C[C@@H](C(=O)O)C6(C)C)C(C)(C)[C@@H]5CC[C@@]4(C)[C@]3(C)CC[C@@]2([C@@H](O)CNC(=O)C(C)(C)NC(=O)CN(C)C)CC1=O | 92HT599 |  |  | p24 / ELISA | MT-2 | <1 µM
COc1cccc2[nH]cc(C(=O)C(=O)N3CCN(C(=O)c4ccccc4)C[C@@H]3C)c12 |  |  |  | luciferase | HeLa + HELA CD4+/CCR5 | <10 µM
CC[C@@H]1COC[C@@H](N(C)C(=O)C(=O)N(C)C)c2nc(C(=O)NCc3ccc(F)cc3)c(O)c(=O)n21 |  | Y143R |  | single cycle | HeLa P4-2 | 0.001 µM
CC(C)C1=C2[C@H]3CC[C@@H]4[C@@]5(C)CC[C@H](OC(=O)[C@H]6C[C@@H](C(=O)O)C6(C)C)C(C)(C)[C@@H]5CC[C@@]4(C)[C@]3(C)CC[C@@]2([C@@H](O)CNC(=O)C(C)(C)NC(=O)c2ccc(C(F)(F)F)cc2)CC1=O | 92HT599 |  |  | p24 / ELISA | MT-2 | <1 µM
Nc1ccc(C(=O)N2CCN(C(=O)C(=O)c3c[nH]c4cccc(F)c34)CC2)cc1 |  |  |  | luciferase | HeLa + HELA CD4+/CCR5 | <10 µM
O=C(O)c1cc(-n2cccc2)ccc1Cl | 93UG065 X4 CLADE D |  |  | luciferase / cell fusion | PBMC/5.25M7 | 93.56 µM
COCc1nc(Nc2ccc(C#N)cc2)nc(Nc2c(C)cc(/C=C/C#N)cc2C)c1C(=O)NC1CC1 | K103N+Y101C |  |  |  | MT4 CMV-EGFP | 0.0224 µM
CC[C@H]1COC[C@H](N(C)C(=O)C(=O)N(C)C)c2nc(C(=O)NCc3ccc(F)cc3)c(O)c(=O)n21 |  | N155H |  | single cycle | HeLa P4-2 | 0.003 µM
COCc1nc(Nc2ccc(C#N)cc2)nc(Nc2c(C)cc(/C=C/C#N)cc2C)c1C(=O)NCc1cccnc1 | IIIB |  |  |  | MT4 CMV-EGFP | 0.00288 µM
CCC(=O)c1ccc(F)c([C@@H]2C[C@@H]2NC(=O)Nc2ccc(C#N)cn2)c1O | LAI | NNRTI-resistant (RT K101E/K103N) |  | β-galactosidase / luminescence | TZM-bl | 0.0381 µM

A second listing of 3 rows from above:

C[C@@H]1CN(C(=O)c2cccc(N)c2)CCN1C(=O)C(=O)c1c[nH]c2cccc(F)c12 ; read by: luciferase ; cell line: HeLa + HELA CD4+/CCR5 ; value: <10 µM
COCc1nc(Nc2ccc(C#N)cc2)nc(Nc2c(C)cc(/C=C/C#N)cc2C)c1C(=O)NCCc1ccccn1 ; strain or isolate: MDR ; cell line: MT4 CMV-EGFP ; value: 0.372 µM
CC(C)C1=C2[C@H]3CC[C@@H]4[C@@]5(C)CC[C@H](OC(=O)[C@H]6C[C@@H](C(=O)O)C6(C)C)C(C)(C)[C@@H]5CC[C@@]4(C)[C@]3(C)CC[C@@]2([C@@H](O)CNC(=O)C(C)(C)NC(=O)c2ccc(C(F)(F)F)cc2)CC1=O ; strain or isolate: 92HT599 ; read by: p24 / ELISA ; cell line: MT-2 ; value: <1 µM